Results of unrelated studies side by side (data: NIAID ChemDB).

All rows: whole-cell or culture tests; species: Candida albicans; measure: MIC

Neighbouring rows are from separate reports. An empty or dashed field is not shown.

structure	strain or isolate	read by	value
CO[C@H]1C[C@H](O[C@H]2CC[C@@]3(C)C(=CC[C@@H]4[C@@H]3CC[C@]35C(=O)O[C@H](C)[C@H]3C(=O)C[C@]45O)C2)O[C@H](C)[C@H]1O[C@H]1C[C@H](OC)[C@H](O[C@@H]2C[C@@H](OC)[C@@H](O[C@@H]3O[C@H](CO)[C@@H](O)[C@H](O)[C@H]3O)[C@H](C)O2)[C@@H](C)O1	ATCC 2091	broth dilution / turbidity	100 µg/mL
COc1cccc2c1C(=O)C=CC2=O	-	-	64 µg/mL
COc1ccc(C(=O)/C=C/c2ccc(C(=O)O)cc2)cc1	1 clinical isolate	-	>32 µg/mL
CO[C@H]1C[C@H](O[C@H]2CC[C@@]3(C)C(=CC[C@H]4C5=CC(=O)[C@@H]6[C@@H](C)OC(=O)[C@]56CC[C@@H]43)C2)O[C@H](C)[C@H]1O[C@H]1C[C@H](OC)[C@H](O[C@H]2C[C@H](OC)[C@H](O[C@@H]3C[C@@H](OC)[C@@H](O)[C@H](C)O3)[C@@H](C)O2)[C@@H](C)O1	ATCC 2091	broth dilution / turbidity	>100 µg/mL
N#CC(C#N)C(CC(=O)c1ccccc1)c1ccc(Cl)cc1Cl	ATCC 10231	-	>50 µg/mL
O=c1c2ccccc2[se]n1-c1ccccc1	-	-	128 µg/mL
CO[C@H]1C[C@H](O[C@H]2CC[C@@]3(C)C(=CC[C@@H]4[C@@H]3CC[C@]35C(=O)O[C@H](C)[C@H]3C(=O)C[C@]45O)C2)O[C@H](C)[C@H]1O[C@H]1C[C@H](OC)[C@H](O[C@H]2C[C@H](OC)[C@H](O[C@H]3C[C@H](OC)[C@H](O[C@@H]4C[C@@H](OC)[C@@H](OC5O[C@H](CO)[C@@H](O)[C@H](O)[C@H]5O)[C@H](C)O4)[C@@H](C)O3)[C@@H](C)O2)[C@@H](C)O1	ATCC 2091	broth dilution / turbidity	50 µg/mL
O=C1C=C(Sc2ccccc2F)C(=O)c2c(O)cccc21	-	-	64 µg/mL
O=C1C(c2ccc(Cl)cc2)=[N+]([O-])c2cc3c(cc21)OCO3	-	-	31.25 µg/mL
Cn1nc(-c2cccc(Cl)c2)[n+]([O-])c2c(=O)n(-c3ccccc3)c(=O)nc1-2	IFO 0583	-	50 µg/mL
CO[C@H]1C[C@H](O[C@H]2[C@@H](OC)C[C@H](O[C@H]3[C@@H](OC)C[C@H](O[C@H]4CC[C@@]5(C)C(=CC[C@H]6C7=CC(=O)[C@@H]8[C@@H](C)OC(=O)[C@]78CC[C@@H]65)C4)O[C@@H]3C)O[C@@H]2C)O[C@H](C)[C@H]1O	ATCC 2091	broth dilution / turbidity	>100 µg/mL
O=C(/C=C/c1ccccc1[N+](=O)[O-])c1ccccc1	ATCC 10231	-	>50 µg/mL
Cn1nc(-c2ccccc2)[n+]([O-])c2c(=O)n(C)c(=O)nc1-2	IFO 0583	-	5 µg/mL
COc1cc(C(=O)CC(c2cc(OC)c(OC)c(OC)c2)C(C#N)C#N)cc(OC)c1OC	ATCC 10231	-	>50 µg/mL
O=C1C(Sc2ccc(F)cc2F)=C(Sc2ccc(F)cc2F)C(=O)c2c(O)cccc21	-	-	8 µg/mL
O=c1c2cccnc2[se]n1N(c1ccccc1)c1ccccc1	-	-	>500 µg/mL
CC[CH2][Sn]([CH2]CC)([CH2]CC)[S]C[C@@H]1CCCN2CCCC[C@H]12	ATCC 10231	-	1.95 µg/mL
C[C@H](CCC(=O)NCCNCCNC(=O)CC[C@@H](C)[C@H]1CCC2C3C(C[C@H](C)[C@@]21O)[C@@]1(C)CC[C@@H](O)CC1C[C@H]3O)[C@H]1CCC2C3C(C[C@H](C)[C@@]21O)[C@@]1(C)CC[C@@H](O)CC1C[C@H]3O	Isolate 1	-	0.01 µM
COc1cccc2c1C(=O)C=C(Sc1ccc(C)cc1)C2=O	-	-	32 µg/mL
O=C1/C(=C/c2ccccc2)CN(C(=O)/C=C/c2ccc([N+](=O)[O-])cc2)C/C1=C\c1ccccc1	1 clinical isolate	-	>32 µg/mL
CCCCOC(=O)C1(OC(C)=O)CC(OC(C)=O)C(OC(=O)/C=C/c2ccc(OC(C)=O)c(OC)c2)C(OC(C)=O)C1	ATCC 10231	-	>1000 µg/mL
O=c1c2cccnc2[se]n1-c1ccccc1	-	-	>500 µg/mL
O=C1C(c2ccccc2)=[N+]([O-])c2ccccc21	-	-	3.9 µg/mL
Cc1nn(C)c2nc(=O)n(C)c(=O)c-2[n+]1[O-]	IFO 0583	-	100 µg/mL
CC(Cc1ccc(C(C)(C)C)cc1)CN1CC(C)OC(C)C1	SC5314	-	>3.12 µg/mL
[CH3][Sn]([CH3])([CH3])[S]c1nc2ccccc2o1	ATCC 10231	-	31.25 µg/mL
CO[C@H]1C[C@H](O[C@H]2CC[C@@]3(C)C(=CC[C@H]4C5=CC(=O)[C@@H]6[C@@H](C)OC(=O)[C@]56CC[C@@H]43)C2)O[C@H](C)[C@H]1O[C@H]1C[C@H](OC)[C@H](O[C@@H]2C[C@@H](OC)[C@@H](O[C@@H]3O[C@H](CO[C@@H]4O[C@H](CO)[C@@H](O)[C@H](O)[C@H]4O)[C@@H](O)[C@H](O)[C@H]3O)[C@H](C)O2)[C@@H](C)O1	ATCC 2091	broth dilution / turbidity	>100 µg/mL
COc1ccc(C(=O)CC(c2cc3ccccc3nc2Cl)C(C#N)C#N)cc1OC	ATCC 10231	-	>50 µg/mL
COc1ccc2c(c1OC)C(=O)O[C@@H]2[C@H]1c2cc3c(cc2CCN1C)OCO3	ATCC 10231	-	>1000 µg/mL
CCOP(=O)(OCC)OC[C@@H](O)[C@@H](O)[C@H](O)[C@@H](N)CO	ATCC 10261	-	600 µg/mL
Cn1nc(-c2ccc(Cl)c(Cl)c2)nc2c(=O)n(-c3ccccc3)c(=O)nc1-2	IFO 0583	-	50 µg/mL
CCCCOC(=O)[C@]1(OC(C)=O)CC(OC(C)=O)[C@@H](OC(C)=O)C(OC(=O)/C=C/c2ccc(OC(C)=O)c(OC)c2)C1	ATCC 10231	-	>1000 µg/mL
O=C(/C=C/c1ccc2ccccc2c1)c1ccccc1	ATCC 10231	-	>50 µg/mL
COc1cccc2c1C(=O)C(Sc1ccc(Cl)cc1)=CC2=O	-	-	2 µg/mL
CN[C@@H]1[C@H](O)[C@@H](O)[C@H](O[C@H]2c3cc(C)c(C(=O)N[C@H](C)C(=O)O)c(O)c3-c3c(cc4c(c3O)C(=O)c3cc(OC)cc(O)c3C4=O)[C@@H]2O)O[C@@H]1C	A9540	-	3.1 µg/mL
COc1cc(Cc2cnc(N)nc2N)cc(OC)c1OCCCNc1ccc(S(=O)(=O)c2ccc(N)cc2)cc1	YEM15 (CDR1CDR2UP)	-	>64 µg/mL
[CH3][Sn]([CH3])([CH3])[S]c1nc2ccccc2s1	ATCC 10231	-	125 µg/mL
COc1cc(O)c2c(c1)C(=O)c1c(cc3c(c1O)-c1c(cc(C)c(C(=O)NC(CO)C(=O)O)c1O)[C@H](OC1OC(C)C(N(C)C)C(OC4OCC(O)C(O)C4O)C1O)[C@H]3O)C2=O	A9540	-	6.3 µg/mL
O=c1c2cccnc2[se]n1N(c1ccccc1)c1ccccn1	-	-	>500 µg/mL
C[CH2][Sn]([CH2]C)([CH2]C)[S]C[C@@H]1CCCN2CCCC[C@H]12	ATCC 10231	-	15.63 µg/mL
O=C1C(Sc2ccccc2)=C(Sc2ccccc2)C(=O)c2c(O)cccc21	-	-	64 µg/mL
CC(=O)N1CCN(c2ccc(OC[C@H]3CO[C@](Cn4ccnc4)(c4ccc(Cl)cc4Cl)O3)cc2)CC1	Isogenic isolate 13 Erg11 (4-5X) R467K	-	0.03 µg/mL
O=c1c2cccnc2[se]n1C1CCCCC1	-	-	>500 µg/mL
O=C1C(Nc2ccc(F)cc2)=C(Cl)C(=O)c2c(O)cccc21	-	-	16 µg/mL
COc1cccc(C(CC(=O)c2ccccc2)C(C#N)C#N)c1OC	ATCC 10231	-	>50 µg/mL
O=C(O)c1ccc(/C=C/C(=O)c2ccc(O)cc2)cc1	1 clinical isolate	-	>32 µg/mL
O=c1c2ccccc2[se]n1-c1ccccn1	-	-	>500 µg/mL
COc1ccc2c(c1)C(=O)C(c1ccc(-c3ccc(Cl)cc3)cc1)=[N+]2[O-]	-	-	31.25 µg/mL
COc1cc(Cc2cnc(N)nc2N)ccc1OCCCCN1C(=O)c2ccccc2C1=O	YEM27 (quadruple deletion)	-	64 µg/mL
COC(=O)[C@@H](CO)NC(=O)c1c(C)cc2c(c1O)-c1c(cc3c(c1O)C(=O)c1cc(OC)cc(O)c1C3=O)[C@H](O)[C@H]2O[C@@H]1O[C@H](C)[C@H](N(C)C)[C@H](O[C@@H]2OC[C@@H](O)[C@H](O)[C@H]2O)[C@H]1O	A9540	-	>100 µg/mL
Cc1ccc(SC2=C(Sc3ccc(C)cc3)C(=O)c3c(O)cccc3C2=O)cc1	-	-	32 µg/mL
O=C1/C(=C/c2ccccc2)CN(C(=O)/C=C/c2ccc(Cl)cc2)C/C1=C\c1ccccc1	1 clinical isolate	-	>32 µg/mL
O=c1c2cccnc2[se]n1-c1ccc(Cl)cc1	-	-	>500 µg/mL
Cn1nc(-c2ccc(Cl)cc2)nc2c(=O)n(C)c(=O)nc1-2	IFO 0583	-	5 µg/mL
COc1ccc(C2=[N+]([O-])c3ccccc3C2=O)cc1	-	-	>125 µg/mL
Cc1nc2c(=O)n(C)c(=O)nc-2n(C)n1	IFO 0583	-	50 µg/mL
COc1ccc2c(c1OC)CN1CCc3cc4c(cc3[C@@H]1C2)OCO4	ATCC 10231	-	>1000 µg/mL

Repeating the final 4 entries:

{"structure": "Cn1nc(-c2ccc(Cl)cc2)nc2c(=O)n(C)c(=O)nc1-2", "strain or isolate": "IFO 0583", "value": "5 µg/mL"}
{"structure": "COc1ccc(C2=[N+]([O-])c3ccccc3C2=O)cc1", "value": ">125 µg/mL"}
{"structure": "Cc1nc2c(=O)n(C)c(=O)nc-2n(C)n1", "strain or isolate": "IFO 0583", "value": "50 µg/mL"}
{"structure": "COc1ccc2c(c1OC)CN1CCc3cc4c(cc3[C@@H]1C2)OCO4", "strain or isolate": "ATCC 10231", "value": ">1000 µg/mL"}